Laboratory results as given in patent publication US12202850B2, “Cyclobutyl purine derivative or salt thereof” (FUJIFILM Corporation, priority 2018, dated 2025).
Only a part of the results on these compounds is given; other tests are left out.

System: adenovirus type 6 (ADV6)
Experiment: Evaluation of anti-adenovirus activity (CRL-11516 cells infected with ADV6, anti-hexon staining)
Assay type: cell-based
Details: read-out: Anti-AdV activity EC50, ADV6 (50TCID50), 48 hours, 50% reduction of dark brown-stained cells

For “(cis-3-(2-amino- 6-methoxy-9H- purin-9-yl) cyclobutyl)methyl bis(S-pivaloyl-2- mercaptoethan-1- yl)phosphate”, the EC50 was 1 to 10 µM.
